Sequences of proteins named here, by UniProt entry; tags and fusion partners are left off. Residues count along the entry.
UniProt P0DPI0, 2-448 limits assumed: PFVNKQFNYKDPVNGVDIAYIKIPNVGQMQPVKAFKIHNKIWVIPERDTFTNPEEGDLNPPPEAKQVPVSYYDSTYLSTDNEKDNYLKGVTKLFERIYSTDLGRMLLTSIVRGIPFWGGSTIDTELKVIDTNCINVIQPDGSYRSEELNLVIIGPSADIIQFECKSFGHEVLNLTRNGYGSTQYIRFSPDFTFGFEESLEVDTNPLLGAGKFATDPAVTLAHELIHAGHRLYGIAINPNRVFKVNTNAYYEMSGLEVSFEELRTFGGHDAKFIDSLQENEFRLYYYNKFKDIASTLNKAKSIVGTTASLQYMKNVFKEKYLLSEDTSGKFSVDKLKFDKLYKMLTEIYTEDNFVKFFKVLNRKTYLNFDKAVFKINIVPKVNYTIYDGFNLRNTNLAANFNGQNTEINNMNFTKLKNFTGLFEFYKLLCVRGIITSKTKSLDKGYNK

According to ChEMBL document CHEMBL5104150, “Synthesis and activity evaluation of selenazole-coupled CPI-1 irreversible bifunctional inhibitors for botulinum toxin A light chain” (2022):

Key:
[1] = biological target: T1, Botulinum neurotoxin type A (Clostridium botulinum, UniProt P0DPI0); assay: Inhibition of Clostridium botulinum BoNT/A light chain
[2] = biological target: T1, Botulinum neurotoxin type A; assay: Inhibition of Clostridium botulinum BoNT/A light chain (1 to 424 residues) using SNAPtide as substrate by FRET assay

O=C(O)CCCc1ccc(C2[Se]c3ccccc3C2=O)cc1 (stereo not given)
IC50 [1]: 5280 nM

CC(C)C[C@H](NC(=O)[C@@H]1CSSC[C@H](N)C(=O)N[C@@H](CCN)C(=O)N[C@@H](CCCNC(=N)N)C(=O)N[C@@H](Cc2c[nH]c3ccccc23)C(=O)N[C@@H]([C@@H](C)O)C(=O)N[C@@H](CCCCN)C(=O)N1)C(=O)NCCNC(=O)Cc1ccc(-n2[se]c3ccccc3c2=O)cc1
IC50 [2]: 500 nM

CC(C)C[C@H](NC(=O)[C@@H]1CSSC[C@H](NC(=O)c2ccc(-n3[se]c4ccccc4c3=O)cc2)C(=O)N[C@@H](CCN)C(=N)N[C@@H](CCCNC(=N)N)C(=O)N[C@@H](Cc2c[nH]c3ccccc23)C(=O)N[C@@H]([C@@H](C)O)C(=O)N[C@@H](CCCCN)C(=O)N1)C(=O)O
IC50 [2]: 2980 nM

O=C(O)Cc1ccc(-n2[se]c3ccccc3c2=O)cc1
IC50 [1]: 810 nM

CC(C)C[C@H](NC(=O)[C@@H]1CSSC[C@H](NC(=O)Cc2ccc(-n3[se]c4ccccc4c3=O)cc2)C(=O)N[C@@H](CCN)C(=O)N[C@@H](CCCNC(=N)N)C(=O)N[C@@H](Cc2c[nH]c3ccccc23)C(=O)N[C@@H]([C@@H](C)O)C(=O)N[C@@H](CCCCN)C(=O)N1)C(=O)O
IC50 [2]: 2240 nM

O=C(O)CCCn1[se]c2ccccc2c1=O
IC50 [1]: 6780 nM

O=C(O)CCc1ccc(-n2[se]c3ccccc3c2=O)cc1
IC50 [1]: 420 nM

CC(C)C[C@H](NC(=O)[C@@H]1CSSC[C@H](NC(=O)CCc2ccc(-n3[se]c4ccccc4c3=O)cc2)C(=O)N[C@@H](CCN)C(=O)N[C@@H](CCCNC(=N)N)C(=O)N[C@@H](Cc2c[nH]c3ccccc23)C(=O)N[C@@H]([C@@H](C)O)C(=O)N[C@@H](CCCCN)C(=O)N1)C(=O)O
IC50 [2]: 2090 nM

CC(C)C[C@H](NC(=O)[C@@H]1CSSC[C@H](NC(=O)CNC(=O)CCc2ccc(-n3[se]c4ccccc4c3=O)cc2)C(=O)N[C@@H](CCN)C(=O)N[C@@H](CCCNC(=N)N)C(=O)N[C@@H](Cc2c[nH]c3ccccc23)C(=O)N[C@@H]([C@@H](C)O)C(=O)N[C@@H](CCCCN)C(=O)N1)C(=O)O
IC50 [2]: 4130 nM

CC(C)C[C@H](NC(=O)[C@@H]1CSSC[C@H](NC(=O)CNC(=O)CNC(=O)CCc2ccc(-n3[se]c4ccccc4c3=O)cc2)C(=O)N[C@@H](CCN)C(=O)N[C@@H](CCCNC(=N)N)C(=O)N[C@@H](Cc2c[nH]c3ccccc23)C(=O)N[C@@H]([C@@H](C)O)C(=O)N[C@@H](CCCCN)C(=O)N1)C(=O)O
IC50 [2]: 1770 nM

CC(C)C[C@H](NC(=O)[C@@H]1CSSC[C@H](NC(=O)CCCn2[se]c3ccccc3c2=O)C(=O)N[C@@H](CCN)C(=O)N[C@@H](CCCNC(=N)N)C(=O)N[C@@H](Cc2c[nH]c3ccccc23)C(=O)N[C@@H]([C@@H](C)O)C(=O)N[C@@H](CCCCN)C(=O)N1)C(=O)O
IC50 [2]: 1170 nM

O=C(O)CCCCCn1[se]c2ccccc2c1=O
IC50 [1]: 5130 nM

CC(C)C[C@H](NC(=O)[C@@H]1CSSC[C@H](N)C(=O)N[C@@H](CCN)C(=O)N[C@@H](CCCNC(=N)N)C(=O)N[C@@H](Cc2c[nH]c3ccccc23)C(=O)N[C@@H]([C@@H](C)O)C(=O)N[C@@H](CCCCN)C(=O)N1)C(N)=O
IC50 [2]: 270 nM

CC(C)C[C@H](NC(=O)[C@@H]1CSSC[C@H](NC(=O)CCCCCn2[se]c3ccccc3c2=O)C(=O)N[C@@H](CCN)C(=O)N[C@@H](CCCNC(=N)N)C(=O)N[C@@H](Cc2c[nH]c3ccccc23)C(=O)N[C@@H]([C@@H](C)O)C(=O)N[C@@H](CCCCN)C(=O)N1)C(=O)O
IC50 [2]: 1200 nM

NCCNC(=O)Cc1ccc(-n2[se]c3ccccc3c2=O)cc1
IC50 [2]: > 100000 nM
